Results of unrelated studies side by side (data: NIAID ChemDB).

Shared fields: growth or infection tests; agent: HIV-1; method: antigen; measure: EC50

An empty or dashed field is not shown. Neighbouring rows are from separate reports. ECn: concentration that inhibits the pathogen or its effect by n%.

compound | cell line | mutations | strain | result
Cc1cc2c(C(C)C)c(O)c(O)c3c(N)oc(/c1=c1/c(C)cc4c(C(C)C)c(=O)c(=O)c5c(N)oc1c45)c23 | MT-4 |  | LAV-A | 0.25 µM
Nc1ccn([C@H]2CC[C@@H](COP(=O)(OCC(F)(F)F)OCC(F)(F)F)O2)c(=O)n1 | C8166 |  | RF | 30 µM
Cc1ccc(-c2ccc3c(c2)C=C(C(=O)Nc2ccc(C[N+](C)(C)C4CCOCC4)cc2)CCC3)cc1 | PBMC |  | NL4-3 X4 | >1 µg/mL
COC(=O)C(C)NP(=O)(OCC12CO[C@H](C1)[C@H](n1cc(C)c(=O)[nH]c1=O)O2)Oc1ccccc1 | MT-4 |  | IIIB | >300 µM
Cc1cn([C@H]2C[C@H](N=[N+]=[N-])[C@@H](COP(=O)(OCC(F)(F)F)OCC(F)(F)F)O2)c(=O)[nH]c1=O | C8166 |  | RF | 0.4 µM
Cc1cn([C@@H]2O[C@]3(CO)CO[C@H]2C3)c(=O)[nH]c1=O | MT-4 |  | IIIB | >300 µM
CN=C1CN=C(c2ccc[nH]2)c2cc(Cl)ccc2N1 | Jurkat cells |  | N1T | 0.2 µM
CC[C@H](C)[C@H](NC(=O)[C@H](C/C=C/c1ccccc1)C[C@H](O)[C@H](Cc1ccccc1)NC(=O)OC(C)(C)C)C(=O)NCc1nc2ccccc2[nH]1 | H9 |  | IIIB | <0.012 µM
COC(=O)c1cc2c(c(OC)c1-c1ccc(N(C)C)cc1)OCO2 | C8166 | WT | NL4-3 | 0.53 µM
CC(C)(C)OC(=O)N[C@@H](Cc1ccccc1)[C@@H](O)C[C@@H](Cc1ccc(OCCN2CCOCC2)cc1)C(=O)N[C@H]1c2ccccc2C[C@H]1O | MT-4 |  | MN | <0.025 µM
COC(=O)[C@H](C)NP(=O)(OC[C@H]1O[C@@H](n2cc(C)c(=O)[nH]c2=O)C[C@@H]1N=[N+]=[N-])Oc1ccccc1 | MM + M/M |  | BaL | 0.012 µM
CC(C)C[C@H](NC(=O)[C@H](Cc1ccccc1)C[C@H](O)[C@H](Cc1ccccc1)NC(=O)OC(C)(C)C)C(=O)N[C@@H](Cc1ccccc1)C(N)=O | H9 |  | IIIB | <6 µM
Cc1cn([C@H]2C[C@H](F)[C@@H](CO)O2)c(=O)[nH]c1=O | MT-4 |  | SCV 4005 | 0.0029 µM
[NH4+] | MT-4 |  | GUN1 | >100 µg/mL
O=c1[nH]c(=O)n([C@H]2C[C@H](F)[C@@H](CO)O2)cc1Br | HuT-78 + HUT 78 |  | IIIB | 3.4 µM
Cc1cc2c(C(C)C)c(O)c(O)c3c(O)oc(/c1=c1/c(C)cc4c(C(C)C)c(=O)c(=O)c5c(O)oc1c45)c23 | MT-4 |  | LAV-A | 63 µM
Cc1cn([C@H]2C[C@H](F)[C@@H](CO)O2)c(=O)[nH]c1=O | PBMC | RT-V75I F77L F116Y Q151M | BS NRTI-MDR (RT-V75I F77L F116Y Q151M) | 0.005 µM
Cc1cn([C@H]2C[C@H](N=[N+]=[N-])[C@@H](CO)O2)c(=O)[nH]c1=O | HuT-78 + HUT 78 |  | IIIB | 0.031 µM
COC(=O)[C@H](C)NP(=O)(OC[C@@H]1O[C@H](n2ccc(N)nc2=O)CS1)Oc1ccccc1 | MM + M/M |  | BaL | 0.032 µM
CC(C)(C)OC(=O)N[C@@H](Cc1ccccc1)[C@@H](O)C[C@@H](Cc1ccc(OCCN2CCSCC2)cc1)C(=O)N[C@H]1c2ccccc2C[C@H]1O | H9 |  | IIIB | <0.05 µM
Nc1ncnc2c1ncn2[C@H]1C=C[C@@H](CO)O1 | MM + M/M |  | BaL | 5 µM
Nc1ncnc2c1ncn2CCOCP(=O)(O)O | H9 |  |  | 0.4 µM
[N-]=[N+]=N[C@H]1[C@H]2OC[C@]1(CO)O[C@H]2n1cnc2c(N)ncnc21 | MT-4 |  | IIIB | >300 µM
CC(C)Nc1cccnc1N1CCN(C(=O)c2cc3cc(NS(C)(=O)=O)ccc3[nH]2)CC1 | MT-4 | RT-P236L | HXBE30(RT-P236L) | ~0.1 µM
O=C1CN=C(c2ccc[nH]2)c2cc(Cl)ccc2N1 | CEM |  | IIIB/LAI | 0.9 µM
O=c1ccn([C@H]2C[C@H](F)[C@@H](CO)O2)c(=O)[nH]1 | HuT-78 + HUT 78 |  | IIIB | 3.8 µM
CC[C@H](C)[C@H](NC(=O)[C@H](Cc1ccccc1)C[C@H](O)[C@H](Cc1ccccc1)NC(=O)OC(C)(C)C)C(=O)NCc1nc2ccccc2[nH]1 | H9 |  | IIIB | <0.2 µM
Cc1cn([C@H]2C=C[C@@H](CO)O2)c(=O)[nH]c1=O | MM + M/M |  | BaL | 0.2 µM
C1CNCCNCCCN[C@H]([C@@H]2CNCCCNCCNCCCN2)CNC1 | HuT-78 + HUT 78 |  | IIIB | 0.43 µM
COC(=O)C(C)NP(=O)(OCC12CO[C@@H]([C@H](n3cc(C)c(=O)[nH]c3=O)O1)[C@@H]2N=[N+]=[N-])Oc1ccccc1 | MT-4 |  | IIIB | >300 µM